Compound potency records, mixed from different reports. Data source: NIAID ChemDB in PubChem.

Shared fields: growth or infection tests; organism: Mycobacterium tuberculosis

MIC50, MIC90 and the like: level of inhibition, or share of isolates inhibited. Lines come from different laboratories, so protocols vary. ECn: concentration that inhibits the pathogen or its effect by n%. Inhibition is in % at the dose shown (toxicity tests: loss of growth or viability). Blank or dashed fields: not listed here. MIC bound comes from a single tested concentration. a–b is a range or a potency band.

SMILES,strain or isolate,changes,cells,method,measure,dose,value
C=C1C(=O)O[C@H]2[C@@H]3O[C@H](C[C@@H]12)[C@](C)(O)CC/C=C(\C)CCC[C@H]3C,H37Rv,-,-,BACTEC,inhibition,12.5 µg/mL,25%
O=C1NC(=O)/C(=C/c2cccc(OCc3ccccc3)c2)N1,H37Rv,-,-,-,EC50,-,<6.25 µg/mL
CN1CCCCC1CCN1c2ccccc2Sc2ccc(S(C)=O)cc21,21 isolates (multidrug resistance),-,-,-,MIC,-,2 µg/mL
O=C1NC(=S)N/C1=C/c1ccc2ccccc2c1,H37Rv,-,-,-,inhibition,6.25 µg/mL,53%
CC1(C)COCN1c1nc2c(cc1[N+](=O)[O-])c(=O)c(C(=O)O)c1sc3ccccc3n12,H37Rv (MTB),-,-,-,MIC100,-,3.54 µM
Oc1ccc(Cl)cc1C(=S)Nc1ccc(Cl)c(Cl)c1,My 331/88,-,-,-,MIC,-,1 µM
COc1ccc(OC)c(/C=N/N=C(\N)c2ccncc2)c1,1342,-,-,-,MIC,-,256 µg/mL
CO[C@H]1/C=C/O[C@@]2(C)Oc3c(C)c(O)c4c(O)c(c(N(NC5CC5)NC5CC5)c(O)c4c3C2=O)NC(=O)/C(C)=C\C=C\[C@H](C)[C@H](O)[C@@H](C)[C@@H](O)[C@@H](C)[C@H](OC(C)=O)[C@@H]1C,M. bovis Ravenel,-,-,-,MIC,-,0.001 µg/mL
Cc1cn2c(C(=O)NCc3ccc(Oc4ccc(F)cc4)cc3)c(C)nc2s1,H37Rv,-,-,resazurin / fluorescence,MIC,-,0.047 µM
CCCCCCC(O)C/C=C/CCCCCCc1c(C(=O)OC)[nH]c(=S)[nH]c1=O,H37Rv,-,-,BACTEC,inhibition,12.5 µg/mL,0%
COc1cc2c(cc1OC)CN(c1nc3c(cc1[N+](=O)[O-])c(=O)c(C(=O)O)c1sc4ccccc4n13)CC2,H37Rv (MTB),-,-,-,MIC100,-,1.46 µM
N/C(=N\N=C\c1ccccc1Cl)c1ccncc1,1054,-,-,-,MIC,-,8 µg/mL
O=C(O)c1c(=O)c2cc([N+](=O)[O-])c(N3CCN(C(=O)c4ccco4)CC3)nc2n2c1sc1ccccc12,H37Rv (MTB),-,-,-,MIC100,-,6.03 µM
CO[C@H]1/C=C/O[C@@]2(C)Oc3c(C)c(O)c4c(O)c(c(N(N(C)CC5CCCO5)N(C)CC5CCCO5)c(O)c4c3C2=O)NC(=O)/C(C)=C\C=C\[C@H](C)[C@H](O)[C@@H](C)[C@@H](O)[C@@H](C)[C@H](OC(C)=O)[C@@H]1C,M. bovis Ravenel,-,-,-,MIC,-,0.003 µg/mL
Oc1ccc(Cl)cc1C(=S)Nc1cccc(F)c1,My 331/88,-,-,-,MIC,-,4 µM
Cc1cn2c(C(=O)NCc3ccc(C(F)(F)F)cc3)c(C)nc2s1,H37Rv,cydKO,-,resazurin / fluorescence,MIC,-,0.047 µM
O=C1N=C(c2ccccc2)C(c2ccccc2)=N1,H37Rv,-,-,BACTEC,inhibition,12.5 µg/mL,0%
C/C=C/C(=O)Oc1cccc2c1C(=O)C=C(C)C2=O,H37Rv,-,-,resazurin,MIC,-,15.6 µM
C[C@@H](O)[C@H]1C(=O)N2C(C(=O)O)=C(S[C@H]3CCCN3)S[C@H]12,H37Rv,-,-,visual reading,MIC,-,0.5 µg/mL
Cn1cc([N+](=O)[O-])cc1C(=O)C(Cl)(Cl)Cl,H37Rv,-,-,resazurin,inhibition,6.25 µg/mL,14%
Cc1cn2c(C(=O)NCc3ccc(N4CCC(c5ccc(OC(F)(F)F)cc5)CC4)cc3)c(C)nc2s1,H37Rv,K14b00DS,-,resazurin / fluorescence,MIC,-,0.047 µM
CC(=O)NC1=C2C=CC=C3C(=O)N(C/C=C\Cn4cc(C)c(=O)[nH]c4=O)C(C=C1)C32,H37Rv,-,-,resazurin,EC50,-,19 µg/mL
Oc1ccc(Cl)cc1C(=S)Nc1ccc(F)cc1,My 331/88,-,-,-,MIC,-,1 µM
COc1ccccc1NC(=O)C(N=Nc1ccc(S(=O)(=O)Nc2nccs2)cc1)C(C)=O,H37Rv,-,-,resazurin,inhibition,6.25 µg/mL,-5%
Cc1cn2c(C(=O)NCc3ccc(N4CCN(c5ccc(C(F)(F)F)cn5)CC4)c(F)c3)c(C)nc2s1,H37Rv,QcrB7 S182P,-,resazurin / fluorescence,MIC,-,0.15 µM
S=C(S)NCCN1CCNC1=S,H37Rv,-,-,resazurin,MIC bound,-,>6.25 µg/mL
CCOC(=O)Cc1csc(/N=C2/NC(=O)/C(=C\c3ccc([N+](=O)[O-])cc3)S2)n1,H37Rv,-,-,-,MIC,-,>12.5 µg/mL
N/C(=N\N=C\c1ccccc1)c1ccncc1,1342,-,-,-,MIC,-,32 µg/mL
CCN(C(=O)COc1cc2c(O)c3c(O)c(C)c4c(c13)C(=O)[C@@](C)(O/C=C/[C@H](OC)[C@@H](C)[C@@H](OC(C)=O)[C@H](C)[C@H](O)[C@H](C)[C@@H](O)[C@@H](C)/C=C/C=C(/C)C(=O)N2)O4)N1CCCCC1,H37Rv,-,-,-,MIC,-,0.045 µg/mL
CCC(=O)Oc1cccc2c1C(=O)C=C(C)C2=O,H37Rv,-,-,resazurin,MIC,-,16.4 µM
CCOC(=O)Cc1csc(/N=C2/NC(=O)C(CC)S2)n1,H37Rv,-,-,-,MIC,-,>12.5 µg/mL
CO[C@H]1/C=C/O[C@@]2(C)Oc3c(C)c(O)c4c(O)c(c(N(N5CCOCC5)N5CCOCC5)c(O)c4c3C2=O)NC(=O)/C(C)=C\C=C\[C@H](C)[C@H](O)[C@@H](C)[C@@H](O)[C@@H](C)[C@H](OC(C)=O)[C@@H]1C,M. bovis Ravenel,-,-,-,MIC,-,0.003 µg/mL
NNC(=O)c1ccncc1,H37Rv,-,-,-,MIC,-,0.428 µg/mL
C=CC(C)(C)c1c2c(c(O)c3c(=O)c4ccc(O)c(O)c4oc13)C=CC(C)(C)O2,H37Rv,-,-,BACTEC,MIC bound,-,>12.8 µg/mL
O=C1NC(=S)NC1/C=C/c1ccccc1,H37Rv,-,-,-,inhibition,6.25 µg/mL,94%
COc1ccc(CC2COC(=O)C2Cc2ccc3c(c2)OCO3)cc1OC,H37Rv,-,-,resazurin,inhibition,128 µg/mL,67%
O=C(N=Nc1c(O)[nH]c2ccccc12)C(=O)N=Nc1c(O)[nH]c2ccccc12,H37Rv,-,-,BACTEC,MIC,-,≥12.5 µg/mL
CCOC(=O)Cc1csc(NC(=O)CCl)n1,H37Rv,-,-,-,MIC,-,>12.5 µg/mL
CC(C)(C)NC(=O)C1c2ccccc2CCN1c1nc2c(cc1[N+](=O)[O-])c(=O)c(C(=O)O)c1sc3ccccc3n12,H37Rv (MTB),-,-,-,MIC100,-,1.36 µM
CO[C@H]1/C=C/O[C@@]2(C)Oc3c(C)c(O)c4c(O)c(cc(OCC(=O)NN)c4c3C2=O)NC(=O)/C(C)=C\C=C\[C@H](C)[C@H](O)[C@@H](C)[C@@H](O)[C@@H](C)[C@H](OC(C)=O)[C@@H]1C,H37Rv,-,-,-,MIC,-,0.15 µg/mL
O=C(N/N=C/c1ccc(O)cc1)C(c1ccccc1)N1CCCCC1,H37Rv,-,-,BACTEC,inhibition,12.5 µg/mL,17%
CCCN(C(=O)COc1cc2c(O)c3c(O)c(C)c4c(c13)C(=O)[C@@](C)(O/C=C/[C@H](OC)[C@@H](C)[C@@H](OC(C)=O)[C@H](C)[C@H](O)[C@H](C)[C@@H](O)[C@@H](C)/C=C/C=C(/C)C(=O)N2)O4)N(CC)CC,H37Rv,-,-,-,MIC,-,0.15 µg/mL
Brc1cncnc1-c1ccc(-c2ccccc2)s1,terrae,Rifampicin- and isoniazid-resistant,-,broth dilution,MIC,-,0.7 µg/mL
CC(CN1c2ccccc2Sc2ccccc21)N(C)C,-,-,-,-,MIC,-,20 µg/mL
COc1ccc(C2OCC3C(c4ccc5c(c4)OCO5)OCC23)cc1OC,H37Rv,-,-,resazurin,inhibition,128 µg/mL,98.6%
Cc1ccc(N2C(=O)CC(Sc3ccccc3N)C2=O)cc1Cl,H37Rv,-,-,BACTEC,inhibition,12.5 µg/mL,-68%
Cc1cccc(/C=C2/NC(=S)NC2=O)c1,H37Rv,-,-,-,EC50,-,<6.25 µg/mL
CO[C@H]1/C=C/O[C@@]2(C)Oc3c(C)c(O)c4c(O)c(c(/C=N/N5CCN(C)CC5)c(O)c4c3C2=O)NC(=O)/C(C)=C\C=C\[C@H](C)[C@H](O)[C@@H](C)[C@@H](O)[C@@H](C)[C@H](OC(C)=O)[C@@H]1C,H37Rv,-,-,-,MIC,-,0.026 µg/mL
O=C1C(=O)c2ccccc2C(O)=C1C(C1=C(O)c2ccccc2C(=O)C1=O)c1ccccc1,H37Rv,-,-,BACTEC,MIC,-,≥12.5 µg/mL
N/C(=N\N=C\c1cccc(Br)c1)c1ccncc1,1342,-,-,-,MIC,-,64 µg/mL
Cc1cn2c(C(=O)NCc3ccc(N4CCOCC4)c(F)c3)c(C)nc2s1,H37Rv,QcrB6 A317T,-,resazurin / fluorescence,MIC,-,4.7 µM
Cc1ccc(C)c(N2C(=O)C(=O)C(c3nc4ccccc4o3)/C(=N/NC(=O)c3ccccc3O)C2=O)c1,H37Rv,-,-,BACTEC,inhibition,12.5 µg/mL,0%
O=C1NC(=S)N/C1=C\c1ccc(OCc2ccc(Cl)cc2)cc1,H37Rv,-,-,-,inhibition,6.25 µg/mL,70%
CC(=O)NC[C@H]1CN(c2ccc(N3CCSCC3)c(F)c2)C(=O)O1,H37Rv,-,VERO,resazurin,MIC,-,0.2 µg/mL
c1cc2c(cc1C1OCC3C(c4ccc5c(c4)OCO5)OCC13)OCO2,H37Rv,-,-,resazurin,inhibition,128 µg/mL,60%
CCOC(=O)CCCOc1ccc(/C=C2/NC(=S)NC2=O)cc1,H37Rv,-,-,-,EC50,-,<6.25 µg/mL
COC1(CO)C(=O)N(C)CC(=O)N1C,ETA-R,-,-,-,MIC,-,6.3 µg/mL
COc1cc(/C=N/N=C(\N)c2ccncc2)cc(OC)c1,H37Rv,-,-,-,MIC,-,256 µg/mL
CCOC(=O)Cc1csc(/N=C2/NC(=O)/C(=C\c3ccc([N+](=O)[O-])o3)S2)n1,H37Rv,-,-,-,inhibition,12.5 µg/mL,67%
Cc1ccc(/C=N/N=C(\N)c2ccncc2)c(C)c1,1054,-,-,-,MIC,-,8 µg/mL
Cc1cn2c(C(=O)NCc3ccc(N4CCOCC4)cc3)c(C)nc2s1,H37Rv,-,-,resazurin / fluorescence,MIC,-,0.463 µM
Nc1nc(Cl)cc(NCCCCCCCCCCCCNc2cc(Cl)nc(N)n2)n1,H37Rv,-,-,BACTEC,inhibition,12.5 µg/mL,91%
CCOC(=O)Cc1csc(/N=C2/NC(=O)/C(=C\c3ccc(C(=O)O)cc3)S2)n1,H37Rv,-,-,-,MIC,-,>12.5 µg/mL
NC(=O)c1cnccn1,21 strains (PZA-susceptible),-,-,-,MIC,-,12.5–200 µg/mL
N/C(=N\N=C\c1ccc(Cl)c([N+](=O)[O-])c1)c1ccncc1,1481,-,-,-,MIC,-,256 µg/mL
CCN(CC)CCN(CC)C(=O)COc1cc2c(O)c3c(O)c(C)c4c(c13)C(=O)[C@@](C)(O/C=C/[C@H](OC)[C@@H](C)[C@@H](OC(C)=O)[C@H](C)[C@H](O)[C@H](C)[C@@H](O)[C@@H](C)/C=C/C=C(/C)C(=O)N2)O4,H37Rv,-,-,-,MIC,-,0.075 µg/mL
CC1=CC(=O)c2c(OC(=O)c3ccccc3)cccc2C1=O,H37Rv,-,-,resazurin,MIC,-,27.4 µM
C/C(=N\NC(=O)c1ccncc1)c1cc2ccccc2oc1=O,H37Rv,-,-,broth dilution,MIC,-,50 µg/mL
CC(C)C[C@H]1C(=O)N2CCC[C@H]2[C@]2(O)O[C@](NC(=O)[C@@H]3C=C4c5cccc6[nH]c(Br)c(c56)C[C@H]4N(C)C3)(C(C)C)C(=O)N12,H37Rv,-,-,BACTEC,inhibition,12.8 µg/mL,60%
O=C1NC(=S)N/C1=C/c1cccc(OCc2ccc(Cl)cc2)c1,H37Rv,-,-,-,inhibition,6.25 µg/mL,95%
CC1=CC(=O)c2ccccc2C1=O,H37Rv,-,-,resazurin,MIC bound,-,>6.25 µg/mL
C/C(=C\c1ccccc1)C1NC(=S)NC1=O,H37Rv,-,-,-,EC50,-,<6.25 µg/mL
c1ccc2c(c1)nc1cc(NC3CCCCC3)c(=NC3CCCCC3)cc-1n2C1CCCCC1,KM-R,-,-,-,MIC,-,3.1 µg/mL
O=C(O)c1c(=O)c2cc([N+](=O)[O-])c(N3CCN(Cc4ccc5c(c4)OCO5)CC3)nc2n2c1sc1ccccc12,H37Rv (MTB),-,-,-,MIC100,-,5.59 µM
CSC(=S)N/N=C(/C)c1cccs1,H37Rv,-,-,BACTEC,MIC,-,0.8 µg/mL
CN1CCN(CCCN2c3ccccc3Sc3ccc(C(F)(F)F)cc32)CC1,-,-,-,-,MIC,-,4–32 µg/mL
Cc1nc(Nc2ccccc2)sc1C(=O)CC(=O)C(=O)Nc1c(C(C)C)cccc1C(C)C,H37Rv,-,-,resazurin,inhibition,6.25 µg/mL,-6%
Oc1ccc(Cl)cc1C(=S)Nc1ccccc1,My 331/88,-,-,-,MIC,-,1 µM

6 of the rows above, restated:

COc1cc(/C=N/N=C(\N)c2ccncc2)cc(OC)c1 ; strain or isolate: H37Rv ; measure: MIC ; value: 256 µg/mL
Cc1ccc(/C=N/N=C(\N)c2ccncc2)c(C)c1 ; strain or isolate: 1054 ; measure: MIC ; value: 8 µg/mL
N/C(=N\N=C\c1ccc(Cl)c([N+](=O)[O-])c1)c1ccncc1 ; strain or isolate: 1481 ; measure: MIC ; value: 256 µg/mL
O=C1NC(=S)N/C1=C/c1cccc(OCc2ccc(Cl)cc2)c1 ; strain or isolate: H37Rv ; measure: inhibition ; dose: 6.25 µg/mL ; value: 95%
CC(=O)NC[C@H]1CN(c2ccc(N3CCSCC3)c(F)c2)C(=O)O1 ; strain or isolate: H37Rv ; cells: VERO ; method: resazurin ; measure: MIC ; value: 0.2 µg/mL
Cc1cn2c(C(=O)NCc3ccc(N4CCC(c5ccc(OC(F)(F)F)cc5)CC4)cc3)c(C)nc2s1 ; strain or isolate: H37Rv ; changes: K14b00DS ; method: resazurin / fluorescence ; measure: MIC ; value: 0.047 µM